A mixed list of measured activities; the numbers were collected in NIAID ChemDB.

Shared fields: whole-cell or culture tests; organism: HIV-1; read by: luciferase; read-out: EC50

Lines come from different laboratories, so protocols vary.

smiles | setting | mutations | cell line | strain or isolate | value
CC[C@H](C)C(=O)O[C@@H]1C(=O)[C@@]2(OC(=O)C(C)C)[C@@]3(O)C[C@@]1(C)[C@H](CC(=O)OC)[C@@]3(C)[C@H]1CC[C@@]3(C)[C@H](c4ccoc4)OC(=O)C[C@]34O[C@]142 | pseudotyped |  | SupT1 |  | 17.45 µM
O=C1OCc2c1cc1cc(O)c(O)cc1c2-c1ccc(O)c(O)c1 |  |  | U87 (CD4+ CCR5+) + U87 | CONB/pNL43E-Luc+ | 0.25 µg/mL
CC(=O)O[C@H]1C=C([C@H](C)[C@H]2CC(C)=C(C)C(=O)O2)[C@@]2(C)CC[C@H]3[C@@H](C[C@@H](O)[C@@]4(O)CC=CC(=O)[C@]34C)[C@@]12O |  |  | MT-2 | NL4-3 | 32.7 µM
CC(C)[C@@H](C)/C=C/[C@@H](C)[C@H]1CCC2C3=CC(=O)[C@@]4(O)C[C@@H](O)CC[C@]4(C)[C@@]3(O)CC[C@@]21C | pseudotyped |  | SupT1 |  | 6.9 µM
CC(=O)O[C@H]1[C@H]2[C@@H]([C@H](OC(C)=O)[C@@H](C)C(=O)[C@@]34C[C@H](C)[C@H](OC(C)=O)[C@]3(/C=C(\C)[C@H]1OCc1ccccc1)O4)C2(C)C |  |  | MT-4 | NL4-3 | >20 µM
COc1ccc(-n2c(C)nnc2SCC(=O)Nc2ccccc2Br)c2ccccc12 |  | RT-K103N Y181C | HeLa + HeLa-JC53 | NL4-3 | 0.093 µM
C=C(C)[C@@H]1CC[C@]2(C(=O)Nc3ccccn3)CC[C@]3(C)[C@H](CC[C@@H]4[C@@]5(C)CC=C(c6ccc(C(=O)O)cc6)C(C)(C)[C@@H]5CC[C@]43C)[C@@H]12 |  | Gag P373S | MT-2 | NL4-3 | <0.1 µM
CCCCC/C=C\C/C=C\C/C=C\C/C=C\CCCC(=O)NCCc1ccc(O)c(O)c1 |  |  | Jurkat cells | NL4-3-Luc VSV pseudotyped | 1 µM
Cc1ccc(-n2c(C)nnc2SCC(=O)Nc2ccc(C#N)cc2Cl)cc1 |  | RT-K103N Y181C | HeLa + HeLa-JC53 | NL4-3 | 0.9 µM
CC(C)[C@@H]1CC[C@]2(NC(=O)CN3C[C@@H]4C[C@@H]3CN4Cc3ccccc3)CC[C@]3(C)[C@H](CC[C@@H]4[C@@]5(C)CC=C(c6ccc(C(=O)O)cc6)C(C)(C)[C@@H]5CC[C@]43C)[C@@H]12 |  |  | MT-2 | NL4-3 | <0.1 µM
CC[C@H](C)[C@H]1NC(=O)[C@@H](NC(=O)[C@@H](CC(C)C)N(C)S(=O)(=O)c2ccc(C)cc2)[C@@H](C)OC(=O)[C@H](Cc2ccc(OC)cc2)N(C)C(=O)[C@@H]2CCCN2C(=O)[C@H](CC(C)C)NC(=O)[C@H](C(C)C)OC(=O)C[C@@H]1O |  | Delta-env-VSV-Luc | PBMC | NL4-3 | 0.014 µM
Cc1ccc([C@@]2(CCl)OC(=O)c3ccccc32)cc1 |  |  | TZM-bl | IIIB | 12 µM
C/C=C/C=C/C(O)=C1\C(=O)[C@@]2(C)C3/C(=C(O)/C=C/C=C/C)C(=O)[C@@]4(C)C1[C@]1(C)O[C@@]4(O)[C@@]3(C)O[C@@]12O | pseudotyped |  | SupT1 |  | 25.5 µM
CC(C)=CCOc1c2occc2cc2ccc(=O)oc12 |  |  | Jurkat cells | NL4-3 Recombinant VSV-pseudotyped | <25 µM
O=C1O[C@](CCl)(c2ccccc2)c2ccccc21 |  |  | TZM-bl | IIIB | 15.4 µM
OCCc1ccc(O)c(O)c1 |  |  | TZM-bl | NL4-3 | 35.4 µM
Cn1c(C(OC(C)(C)C)C(=O)O)c(-c2ccc(CF)cc2F)c2ccccc2c1=O |  |  | MT-4 |  | 1.22 µM
Cc1nc2ccccc2c(-c2ccc3c(c2)CCCO3)c1C(OC(C)(C)C)C(=O)O |  |  |  |  | 11 µM
Cc1ccc(C(=O)Nc2ccc(S(=O)(=O)O)c3cc(S(=O)(=O)O)cc(S(=O)(=O)O)c23)cc1NC(=O)c1cccc(NC(=O)Nc2cccc(C(=O)Nc3cc(C(=O)Nc4ccc(S(=O)(=O)O)c5cc(S(=O)(=O)O)cc(S(=O)(=O)O)c45)ccc3C)c2)c1 |  |  | TZM-bl | LAI | 80 µM
CO[C@H]1[C@H]2[C@@H]([C@H](OC(C)=O)[C@@H](C)C(=O)[C@@]34C[C@H](C)[C@H](OC(C)=O)[C@]3(/C=C(\C)[C@H]1OCc1ccccc1)O4)C2(C)C |  |  | MT-4 | NL4-3 | 1.38 µM
Clc1ccccc1-c1nc2ccccn2c1NC1CCCCC1 | pseudotyped |  | 293T |  | 0.046 µM
COC(=O)c1ccc(NC(=O)CSc2nnc(C)n2-c2ccc(C)cc2)c(Cl)c1 |  | RT-K103N Y181C | HeLa + HeLa-JC53 | NL4-3 | 0.12 µM
O=C(O)C(=O)/C=C(\O)c1cn(Cc2ccc(F)cc2)c2ccc(Br)cc12 |  |  | TZM-bl |  | 0.13 µM
Cc1cn([C@H]2C[C@H](N=[N+]=[N-])[C@@H](CO)O2)c(=O)[nH]c1=O |  |  | TZM-bl | NL4-3 | 0.004 µg/mL
Cc1cn([C@H]2C[C@H](N=[N+]=[N-])[C@@H](CO)O2)c(=O)[nH]c1=O |  |  | TZM-bl | N119 | 0.02 µM
COc1cc(OC)nc(N2C(=O)CSC2c2c(Cl)cccc2[N+](=O)[O-])n1 |  |  | TZM-bl | N119 | 1.22 µg/mL
CC(C)(C)NC(=O)[C@@H]1CN(Cc2cccnc2)CCN1C[C@@H](O)C[C@@H](Cc1ccccc1)C(=O)N[C@H]1c2ccccc2C[C@H]1O |  |  | Jurkat cells | NL4-3 | 0.0475 µM
O=P(O)(O)Cc1cc2c(O)c(c1)Sc1cc(CP(=O)(O)O)cc(c1O)Sc1cc(CP(=O)(O)O)cc(c1O)Sc1cc(CP(=O)(O)O)cc(c1O)S2 |  | NNRTI-resistant | TZM-bl + MT-2 |  | 1 µM
O=C(O)C(O)c1ccccc1 |  |  | HELA-TAT + TZM | JR-FL | <5 µg/mL
C[C@H](Cn1cnc2c(N)ncnc21)OCP(=O)(O)O |  |  | TZM-bl | BaL | 0.02 µM
C/C=C/C=C/C(=O)C1=C(C)C(=O)C(=O)C(C)=C1O | pseudotyped |  | SupT1 |  | 4.7 µM
[N-]=[N+]=N[C@]1(CO)O[C@@H](n2ccc(N)nc2=O)[C@@H](F)[C@@H]1O |  |  | MT-2 | NL4-3 | 0.3 nM
COc1cc(O)c2c(=O)oc3cc(O)cc(C)c3c2c1 | pseudotyped |  | SupT1 | NL4-3 | 30.9 µM
COc1cc(OC)nc(N2C(=O)CSC2c2c(Cl)cccc2Cl)n1 |  |  | TZM-bl | N119 | 1.17 µg/mL
O=C1CCCN1CCCN1CC(=O)N2CC(N(CCOc3ccccc3)S(=O)(=O)c3cccc(F)c3)C[C@H]2C1=O |  |  | TZM-bl | PLAI-JRFL PID2-6 | >30 µM
Cn1nc(NS(C)(=O)=O)c2c(Cl)ccc(-n3c([C@H](Cc4cc(F)cc(F)c4)NC(=O)Cn4nc(C(F)F)c5c4C(F)(F)[C@@H]4C[C@H]54)nc(C#CC(C)(C)S(C)(=O)=O)cc3=O)c21 |  |  | MT-2 | NL4-3 | 0.000069 µM
CCCCCOC(=O)C[C@H](NP(=O)(CO[C@@H](CF)Cn1ccc2c(=O)[nH]c(N)nc21)N[C@@H](CC(=O)OCCCCC)C(=O)OCCCCC)C(=O)OCCCCC |  |  | PBMC | NL4-3 | 1.81 µM
Cc1nc(C)c([C@H](OC(C)(C)C)C(=O)O)c(N2CC[C@H]3CCCC[C@H]3C2)c1-c1ccc(OCCc2ccc(F)cc2)cc1 |  |  | MT-2 | NL4-3 | <0.1 µM
COC[C@@H](c1ccc(C(F)(F)F)cc1)N1CCN(C2(C)CCN(C(=O)c3c(C)ncnc3C)CC2)C[C@@H]1C |  | G516V M518V F519I | TZM-bl |  | 0.0011 µM
CCC(I)C1(c2ccc(F)cc2)OC(=O)c2ccccc21 |  |  | TZM-bl | IIIB | 126 µM
C=C(C)[C@@H]1CC[C@]2(C(=O)N3CCCC(C(=O)N(CC)CC)C3)CC[C@]3(C)[C@H](CC[C@@H]4[C@@]5(C)CC=C(c6ccc(C(=O)O)cc6)C(C)(C)[C@@H]5CC[C@]43C)[C@@H]12 |  | Gag P373S | MT-2 | NL4-3 | <0.1 µM
Cc1ccc([C@]2(CCl)OC(=O)c3ccccc32)cc1 |  |  | TZM-bl | IIIB | 1.4 µM
Cc1ccc(NC(=O)CSc2nnc(C)n2-c2ccccc2)c(Br)c1 |  | RT-Y188L | HeLa + HeLa-JC53 | NL4-3 | >10 µM
CC[C@H](C)[C@H]1NC(=O)[C@@H](NC(=O)OC(C)(C)C)[C@@H](C)OC(=O)[C@H](Cc2ccc(OC)cc2)N(C)C(=O)[C@@H]2CCCN2C(=O)[C@H](CC(C)C)NC(=O)C(C)(C)NC(=O)C[C@@H]1O |  |  | PBMC | NL4-3 | 59.17 µM
CCCCC/C=C\C/C=C\C/C=C\C/C=C\CCCC(=O)OC(CO)CO |  |  | Jurkat cells | NL4-3-Luc VSV pseudotyped | >10 µM
CCCCCCCCCCCCCCC[C@@H](O)[C@@H](N)CO |  |  | TZM-bl | HXB2 | >1.5 µM
Cc1ccc(NC(=O)CSc2nnc(C)n2-c2ccc(C)c3ccccc23)c(Cl)c1 |  | RT-Y188L | HeLa + HeLa-JC53 | NL4-3 | 0.1 µM
COc1cc2c(O[C@@H]3OC[C@](O)(COC(C)=O)[C@H]3O)c3c(c(-c4ccc5c(c4)OCO5)c2cc1OC)C(=O)OC3 | pseudotyped |  | A549 | NL4-3 | 0.569 µM
CC(=O)N1CCc2nc(C)n(C3C[C@H]4CC[C@@H](C3)N4CCC(CNS(=O)(=O)c3ccccc3)c3ccccc3)c2C1 |  |  | HOS-CD4-CCR5 |  | <0.01 µM
O=C1O[C@@](CCl)(c2ccccc2)c2ccccc21 |  |  | TZM-bl | IIIB | 1.2 µM
CC(C)OC(=O)OCOP(=O)(CO[C@H](C)Cn1cnc2c(N)ncnc21)OCOC(=O)OC(C)C |  |  | TZM-bl | NL4-3 | 0.027 µM
Cc1ccnc2c1NC(=O)c1cccnc1N2C1CC1 |  |  | TZM-bl | IIIB | 0.014 µM
CC(C)[C@@H](C)/C=C/[C@@H](C)[C@H]1CCC2=C3[C@@H](O)C4OC45C[C@@H](OC(=O)[C@@H](N)[C@@H](OS(=O)(=O)O)C(C)C)CC[C@]5(C)[C@H]3CC[C@@]21C(=O)O | pseudotyped |  | SupT1 |  | 22.3 µM
C=C(C)[C@]12C[C@@H](C)[C@@]34OC5(CCCCCCC[C@H](C)[C@H]6[C@H](C)[C@H](O)[C@@](O)([C@H](O)[C@@]7(COC(=O)c8ccccc8)O[C@H]7[C@H]3[C@H]1O5)[C@@H]64)O2 |  |  | MT-4 | NL4-3 | 0.00099 µM
Nc1nc2c(ccn2C[C@@H](CF)OCP(=O)(O)O)c(=O)[nH]1 |  |  | TZM-bl | NL4-3 | >100 µM
Cc1nc(C)c([C@H](OC(C)(C)C)C(=O)O)c(N2CCC(C)(C)CC2)c1-c1ccc2c(c1)CCN(C1=NOC3C=CC=CC13)C2 |  |  | MT-2 | NL4-3 | 0.005 µM
CC(C)(O)[C@H](O)COc1c2occc2cc2ccc(=O)oc12 |  |  | MT-2 | NL4-3 Recombinant VSV-pseudotyped | <50 µM
C=C(C)[C@@H]1CC[C@]2(NCCN3C[C@@H]4C[C@@H]3CS4(=O)=O)CC[C@]3(C)[C@H](CC[C@@H]4[C@@]5(C)CC=C(C6=CC[C@H](OC(=O)CC(C)(C)C(=O)O)CC6)C(C)(C)[C@@H]5CC[C@]43C)[C@@H]12 |  |  | MT-2 | NL4-3 | <0.1 µM
Nc1nc2c(c(F)cn2C[C@H](CF)OCP(=O)(O)O)c(=O)[nH]1 |  |  | PBMC | BaL | >100 µM
CC[C@H](C)[C@H]1NC(=O)[C@@H](NC(=O)[C@@H](CC(C)C)N(C)C(=O)c2cc3ccccc3s2)[C@@H](C)OC(=O)[C@H](Cc2ccc(OC)cc2)N(C)C(=O)[C@@H]2CCCN2C(=O)[C@H](CC(C)C)NC(=O)[C@H](C(C)C)OC(=O)C[C@@H]1O |  |  | PBMC | JR | 0.012 µM
CC(C)[C@@H](C)/C=C/[C@@H](C)[C@H]1CCC2C3=C(CC[C@@]21C)[C@@]1(C)CC[C@H](O)CC1=CC3=O | pseudotyped |  | SupT1 |  | 5.9 µM
Nc1nc2c(ccn2C[C@H](CF)OCP(=O)(O)O)c(=O)[nH]1 |  |  | PBMC | BaL | >100 µM
C[C@H](Cn1cnc2c(N)ncnc21)OCP(=O)(O)O |  | X4/R5 | TZM-bl | 89.6 | 6.8 µM
CC(C)C(C)/C=C/[C@@H](C)[C@H]1CCC2C3C[C@@H](O)[C@@]4(O)C[C@@H](O)CC[C@]4(C)C3CC[C@@]21C | pseudotyped |  | SupT1 |  | 9.3 µM
Cn1c2ccccc2c2c1cc(C#N)c(=O)n2-c1ccc([N+](=O)[O-])cc1 |  | RT-A62T V118I M184V | HeLa | Recombinant | 0.428 µM
Cc1cn([C@H]2C[C@H](N=[N+]=[N-])[C@@H](CO)O2)c(=O)[nH]c1=O |  |  | HEK 293 | PNL-4.3LUCR-E | 0.009 µg/mL
CCC(Br)C1(c2ccc(F)cc2)OC(=O)c2ccccc21 |  |  | TZM-bl | IIIB | 129 µM

4 of the rows above, restated:

smiles,setting,mutations,cell line,strain or isolate,value
COc1cc2c(O[C@@H]3OC[C@](O)(COC(C)=O)[C@H]3O)c3c(c(-c4ccc5c(c4)OCO5)c2cc1OC)C(=O)OC3,pseudotyped,,A549,NL4-3,0.569 µM
C=C(C)[C@@H]1CC[C@]2(C(=O)Nc3ccccn3)CC[C@]3(C)[C@H](CC[C@@H]4[C@@]5(C)CC=C(c6ccc(C(=O)O)cc6)C(C)(C)[C@@H]5CC[C@]43C)[C@@H]12,,Gag P373S,MT-2,NL4-3,<0.1 µM
CC(=O)O[C@H]1[C@H]2[C@@H]([C@H](OC(C)=O)[C@@H](C)C(=O)[C@@]34C[C@H](C)[C@H](OC(C)=O)[C@]3(/C=C(\C)[C@H]1OCc1ccccc1)O4)C2(C)C,,,MT-4,NL4-3,>20 µM
C[C@H](Cn1cnc2c(N)ncnc21)OCP(=O)(O)O,,,TZM-bl,BaL,0.02 µM

An empty or dashed field is not shown. ECn: concentration that inhibits the pathogen or its effect by n%.